From US20110117106A1, “USES OF CALPAIN INHIBITORS TO INHIBIT INFLAMMATION” (priority 2008, published 2011)

System: PMN recruitment into the lung and airway lumen
Experiment: Adult C57BL/6 mouse P. aeruginosa infection with bronchoalveolar lavage
Format: in vivo
Details: 2 hr infection
Protocol: To test the effects of calpain inhibition on the transmigration of PMNs into P. aeruginosa-infected airways, bronchoalveolar lavage (BAL) experiments were performed on adult C57BL/6 mice. Mice were treated with i.p. calpeptin or vehicle and intranasally infected with P. aeruginosa for 2 hr. PMNs from BAL or whole-lung suspension were quantified by flow cytometry. Compared to vehicle-treated controls, calpeptin-treated mice had 37% fewer PMNs recruited into the whole lung and 90% fewer into the airway lumen, indicating a more pronounced effect on the epithelial junctions (FIG. 8D). […] Thus, recruitment of PMNs into the murine lung and airway lumen in response to P. aeruginosa is facilitated by calpain activity and its effects on junctional proteins at the mucosal surface.

SMILES: CCCC[C@@H](C=O)NC(=O)[C@H](CC(C)C)NC(=O)OCc1ccccc1 [calpeptin, Z-Leu-Nle-CHO]
- Bacterial load in the lung: did not affect
